Pooled drug test results. Numbers come from NIAID ChemDB, via PubChem.

Common to all: whole-cell or culture tests; agent: Mycobacterium tuberculosis

An empty or dashed field is not shown. MIC bound: limit read from a one-dose screen. MIC50, MIC90 and the like: level of inhibition, or share of isolates inhibited. Percent inhibition refers to the dose given; in toxicity tests it is the harm to the cells. Neighbouring rows are from separate reports. a–b is a range or a potency band. ECn is the concentration giving n% inhibition of infection, replication or growth.

smiles	method	tested at	changes	strain	conditions	read-out	result
NNC(=O)c1ccncc1				89996		MIC	≥0.2 µg/mL
NCC[C@H](O)C(=O)N[C@@H]1C[C@H](N)[C@@H](O[C@H]2O[C@H](CN)[C@@H](O)[C@H](O)[C@H]2O)[C@H](O)[C@H]1O[C@H]1O[C@H](CO)[C@@H](O)[C@H](N)[C@H]1O	broth dilution / resazurin			MDR10		MIC	8 µg/mL
O=C1c2cc(Cl)nnc2Oc2ccc3ccccc3c2N1CC1CCCCC1	BACTEC			H37Rv		EC50	>12.5 µg/mL
O=C1NC(=NCc2ccccc2)N/C1=C\c1ccc(Cl)cc1Cl				H37Rv		MIC	>12.5 µg/mL
Cc1cccc(-c2cs/c(=N/NC(=O)CSc3nnc(-c4ccccn4)s3)n2-c2ccccc2)c1				H37Rv		MIC	40 µg/mL
O=Nc1c(O)cc(O)c2ccccc12	BACTEC			H37Rv		MIC bound	>12.5 µg/mL
C[C@@H]1CN(c2c(F)c(N)c3c(=O)c(C(=O)O)cn(C4CC4)c3c2F)C[C@H](C)N1				891868		MIC	0.2 µg/mL
CCOC(=O)c1cn(C)c2c(cc([N+](=O)[O-])c3cccnc32)c1=O			gyrA mutation D94G gyrB mutation D500N	H37Rv		MIC90	>50 µM
O=C(Oc1cc(Cl)ccc1C(=O)Nc1cccc(Cl)c1)c1cnccn1				H37Rv 331/88	14 d	MIC	2 µM
CC1(C)C2CCC(O2)C(C)(C)C2CCC(O2)C(C)(C)C2CCC(O2)C(C)(C)C2CCC1O2	BACTEC			H37Rv		MIC bound	>12.5 µg/mL
CC(C)(C)c1ccc(C(=O)CCC(=O)NC[C@H]2CN(c3ccc(N4CCOCC4)c(F)c3)C(=O)O2)cc1				10 clinical isolates resistant		MIC	2–4 µg/mL
NNC(=O)c1ccncc1			T460C Cys154Arg	linezolid resistant 8.7		MIC	0.125 µg/mL
C[C@H]1COc2c(N3CCN(C)CC3)c(F)cc3c(=O)c(C(=O)O)cn1c23				H37Rv		MIC	0.5 µg/mL
Cc1ccc(-n2c(=O)oc3cc(Cl)ccc3c2=O)cc1				CNCTC MY331/88		MIC	8 µM
CO[C@H]1/C=C/O[C@@]2(C)Oc3c(C)c(O)c4c(=O)c(c5oc6cc(N7CCN(C(C)C)CC7)cc(=O)c6nc5c4c3=C2O)NC(=O)/C(C)=C\C=C\[C@H](C)[C@H](O)[C@@H](C)[C@@H](O)[C@@H](C)[C@H](OC(C)=O)[C@@H]1C				3113 (rifampin-sensitive)		MBC	0.1 µg/mL
Cc1ccn2cc(-c3cc4cc(Br)cc(Br)c4oc3=O)nc2c1	BACTEC			H37Rv		MIC	>6.25 µg/mL
CO/C(C)=C1/NC(=O)[C@H]([C@@H](C)O)NC(=O)c2csc(n2)-c2cc(O)c(-c3nc(C(=O)NCCCN4CCOCC4)cs3)nc2-c2csc(n2)[C@@H]2COC(=O)c3c4c5c(cccc5n3O)COC(=O)[C@@H](O[C@H]3C[C@](C)(O)[C@H](N(C)C)[C@H](C)O3)[C@@H](OC4)[C@H](NC(=O)c3csc1n3)c1nc(cs1)C(=O)N2	broth dilution			Clinical isolate 30034		MIC	≤2.5 µM
CO[C@H]1/C=C/O[C@@]2(C)Oc3c(C)c(O)c4c(=O)c(c5oc6cc(N7CCN(CC(C)C)CC7)cc(=O)c6nc5c4c3=C2O)NC(=O)/C(C)=C\C=C\[C@H](C)[C@H](O)[C@@H](C)[C@@H](O)[C@@H](C)[C@H](OC(C)=O)[C@@H]1C				27 (rifampin-resistant)		MIC	0.05 µg/mL
O=C1NC(=NCc2ccc(F)cc2)N/C1=C\c1c(Cl)cccc1Cl				H37Rv		MIC	>12.5 µg/mL
Cc1ccc(-n2c(-c3ccccc3)cs/c2=N/NC(=O)CSc2nnc(-c3ccccn3)s2)cc1				Clinical isolate 331		MIC	40 µg/mL
CCCCCc1c(C)[nH]n(C(N)=NCCSCc2nc[nH]c2C)c1=O	BACTEC			H37Rv		MIC bound	>12.5 µg/mL
COc1ccc2c(=O)n(-c3ccc(F)cc3)c(=O)oc2c1				CNCTC MY331/88		MIC	16 µM
O=C1N[C@@H]([C@@H]2CC[C@@H](Cl)CN2)C(=O)N[C@H]1[C@@H]1CC[C@@H](Cl)CN1	BACTEC	12.8 µg/mL		H37Rv		inhibition	25%
O=C(CSc1nnc(-c2ccccn2)s1)N/N=c1/scc(-c2ccccc2)n1-c1ccc(Cl)cc1				Clinical isolate 190		MIC	40 µg/mL
CC(=O)Oc1ccccc1C(=O)Nc1ncc([N+](=O)[O-])s1	visual reading			Haarlem spoligotype 2		MIC	16 µg/mL
C=C1C(=O)OC2C=C(CCC(C)=O)C(C)C(OC(C)=O)CC12	BACTEC	12.5 µg/mL		H37Rv		inhibition	11%
CCOC(=O)c1cn(CC)c2c(cc([N+](=O)[O-])c3cccnc32)c1=O				BCG		MIC90	2.5 µM
Cc1ccc(-c2cs/c(=N/NC(=O)CSc3nnc(-c4ccccn4)s3)n2-c2ccccc2)cc1				H37Rv		MIC	40 µg/mL
CCCCCN1C(=O)c2cc(Cl)nnc2Oc2ccc(C)cc21	BACTEC			H37Rv		EC50	>12.5 µg/mL
O=c1oc2cc(Cl)ccc2c(=O)n1-c1ccc(Cl)cc1				CNCTC MY331/88		MIC	4 µM
CO/C(C)=C1/NC(=O)[C@H]([C@@H](C)O)NC(=O)c2csc(n2)-c2cc(O)c(-c3nc(C(=O)NC(C)c4nc(-c5ccccn5)ns4)cs3)nc2-c2csc(n2)[C@@H]2COC(=O)c3c4c5c(cccc5n3O)COC(=O)[C@@H](O[C@H]3C[C@](C)(O)[C@H](N(C)C)[C@H](C)O3)[C@@H](OC4)[C@H](NC(=O)c3csc1n3)c1nc(cs1)C(=O)N2	broth dilution			H37Rv		MIC	≤10 µM
O=c1c2cc(Cl)ccc2nc2n1OCC2	BACTEC	12.5 µg/mL		H37Rv		inhibition	-1%
Cc1ccn2cc(-c3cc4cccc([N+](=O)[O-])c4oc3=O)nc2c1	BACTEC	6.25 µg/mL		H37Rv		inhibition	100%
CN1C/C(=C/c2ccccc2[N+](=O)[O-])C(=O)/C(=C\c2ccccc2[N+](=O)[O-])C1	BACTEC			H37Rv		MIC bound	>12.5 µg/mL
O=C(CCC(=O)c1ccccc1)NC[C@H]1CN(c2ccc(N3CCOCC3)c(F)c2)C(=O)O1				10 clinical isolates resistant		MIC	>16 µg/mL
CCOC(=O)c1ccc(-n2c(=O)oc3cc(OC)ccc3c2=O)cc1				CNCTC MY331/88		MIC	8 µM
NNC(=O)c1ccncc1	broth dilution			Clinical isolate 30425		MIC	≤1 µM
OC12c3ccccc3C1(N1CCOCC1)CCCCC21OCCCO1	BACTEC			H37Rv		MIC bound	>12.5 µg/mL
CC1COc2c(N3CCN(C)CC3)c(F)cc3c(=O)c(C(=O)O)cn1c23	broth dilution			Ofloxacin-resistant 12119		MIC	>4 µg/mL
O=C(CSc1nnc(-c2ccccn2)s1)N/N=c1/scc(-c2cccc([N+](=O)[O-])c2)n1-c1ccccc1				Clinical isolate 190		MIC	>80 µg/mL
Nc1cc(S(=O)(=O)O)c2cccnc2c1O	resazurin			H37Rv		MIC bound	>6.25 µg/mL
CCCCCCCCCN1C(=O)c2cc(Cl)nnc2Oc2ccc(C)cc21	BACTEC			H37Rv		EC50	>12.5 µg/mL
O=C(Oc1ccc(Cl)cc1C(=O)Nc1cccc(F)c1)c1cnccn1				H37Rv 331/88	14 d	MIC	2 µM
NC(=O)CNC(=O)[C@@H]1C[C@@H](O)CN1C(=O)[C@@H]1CCCN1C(=O)OCc1ccccc1	resazurin			H37Rv		MIC bound	>6.25 µg/mL
NNC(=O)c1ccncc1				Isolate K		MIC	0.062 µg/mL
Clc1c2c(c(Cl)c3c1=Nc1ccc4ccccc4c1S3)=Nc1ccc3ccccc3c1S2	BACTEC			H37Rv		MIC bound	>12.5 µg/mL
O=C(Oc1cc(Cl)ccc1C(=O)Nc1ccc(C(F)(F)F)cc1)c1cnccn1				multidrug resistant 9449/2006	14 d	MIC	0.125 µM
O=C(CCC(=O)c1ccc2ccccc2c1)NC[C@H]1CN(c2ccc(-n3cncn3)c(F)c2)C(=O)O1				10 clinical isolates sensitive		MIC	2–4 µg/mL
COC(=O)Nc1cnc(C(=O)O)c(C)c1-c1ccc(OC)c(OC)c1OCc1ccccc1	BACTEC	12.5 µg/mL		H37Rv		inhibition	0%
CC(=O)NC[C@H]1CN(c2ccc(N3CCOCC3)c(F)c2)C(=O)O1			T460C Cys154Arg	AZD5847-resistant 4.6		MIC	16 µg/mL
O=C(Oc1ccc(Br)cc1C(=O)Nc1ccc(C(F)(F)F)cc1)c1cnccn1				multidrug resistant 53/2009	14 d	MIC	0.5 µM
O=c1oc2ccc(Br)cc2cc1-c1cn2ccccc2n1	BACTEC	6.25 µg/mL		H37Rv		inhibition	5%
O=C(/C=C/C(=O)c1ccccc1)NC[C@H]1CN(c2ccc(N3CCOCC3)c(F)c2)C(=O)O1				10 clinical isolates sensitive		MIC	>16 µg/mL
CCCCCCN1C(=O)c2cc(Cl)nnc2Oc2ccccc21	BACTEC			H37Rv		EC50	>12.5 µg/mL
C=C(NC(=O)c1csc(-c2nc3c(cc2O)-c2nc(cs2)C(=O)N[C@@H]([C@@H](C)O)C(=O)N/C(=C(\C)OC)c2nc(cs2)C(=O)N[C@@H]2c4nc(cs4)C(=O)N[C@@H](COC(=O)c4c5c6c(cccc6n4O)COC(=O)[C@@H](O[C@H]4C[C@](C)(O)[C@H](N(C)C)[C@H](C)O4)[C@H]2OC5)c2nc-3cs2)n1)C(N)=O	broth dilution		Rifampicin- isoniazid- moxifloxacin-resistant	Clinical isolate 6134		MIC	≤2.5 µM
O=C1NC(=Nc2ccc(Cl)cc2Cl)N/C1=C\c1ccccc1Cl				H37Rv		MIC	>12.5 µg/mL
Cc1nc(C#N)c(=N)n(CCCO)c1-c1ccccc1	BACTEC			H37Rv		MIC bound	>12.5 µg/mL
O=C(CSc1nnc(-c2ccccn2)s1)N/N=c1/scc(-c2ccc(Br)cc2)n1-c1ccccc1				Clinical isolate 180		MIC	40 µg/mL
O=c1c2ccccc2sc2nc(CCl)nn12	resazurin	6.25 µg/mL		H37Rv		inhibition	-10%
CO[C@H]1/C=C/O[C@@]2(C)Oc3c(C)c(O)c4c(O)c(c(/C=N/N5CCN(C)CC5)c(O)c4c3C2=O)NC(=O)/C(C)=C\C=C\[C@H](C)[C@H](O)[C@@H](C)[C@@H](O)[C@@H](C)[C@H](OC(C)=O)[C@@H]1C	broth dilution		Rifampicin- and isoniazid-resistant	Clinical isolate 565		MIC	≥10 µM
O=C1CC(N2CCCCC2)C(=O)N1c1ccccc1	BACTEC	12.5 µg/mL		H37Rv		inhibition	17%
O=c1oc2ccccc2cc1-c1cn2ccccc2n1	BACTEC			H37Rv		MIC	>6.25 µg/mL
CCN(CC)/N=N/c1nc[nH]c1C(N)=O	BACTEC	12.5 µg/mL		H37Rv		inhibition	99%
O=C(Oc1ccc(Cl)cc1C(=O)Nc1ccc(Br)cc1)c1cnccn1				H37Rv 331/88	14 d	MIC	2 µM
COc1ccc(C)cc1N=NC1C(=O)N(C(=O)CC(=O)Nc2cccc(C)c2)N=C1C	BACTEC			H37Rv		MIC bound	>12.5 µg/mL
O=C1NC(=Nc2ccc(Cl)cc2Cl)N/C1=C\c1c(Cl)cccc1Cl		12.5 µg/mL		H37Rv		inhibition	4%
Oc1c(CN2CCCC2)cc(Nc2cc(/C=C/c3ccc(Cl)cc3)nc(/C=C/c3ccc(Cl)cc3)n2)cc1CN1CCCC1	resazurin			H37Rv		MIC bound	<6.25 µg/mL
CC[C@H]1OC(=O)[C@H](C)[C@@H](O[C@H]2C[C@@](C)(OC)[C@@H](O)[C@H](C)O2)[C@H](C)[C@@H](O[C@@H]2O[C@H](C)C[C@H](N(C)C)[C@H]2O)[C@](C)(OC)C[C@@H](C)C(=O)[C@H](C)[C@@H](O)[C@]1(C)O				9133		MIC	>4 µg/mL
CN(C)c1ccc(/C=c2\sc3nnc(-c4cccnc4)n3c2=O)cc1	BACTEC			H37Rv		MIC	≥12.5 µg/mL
NNC(=O)c1ccncc1				10S		MIC	0.1 µg/mL
C/C=C/C(C1=C(O)c2ccccc2C(=O)C1=O)C1=C(O)c2ccccc2C(=O)C1=O	BACTEC			H37Rv		MIC bound	>12.8 µg/mL
O=C(Oc1ccc(Cl)cc1C(=O)Nc1ccc(Cl)c(Cl)c1)c1cnccn1				multidrug resistant 234/2005	14 d	MIC	0.125 µM